Source: the supplement of paper PMC11865577

Tests used:
Assay in all cases: pull-down binding Z-score (relative to library population); higher = stronger binding
Conditions in all cases: RNA library: Library-2
[1] = system: TO-3-N3 (biotin conjugate)
Procedure, shortened: (§1)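 An RNA library (1 μg) carrying a Cy5 or Cy3 end label was heat-folded in phosphate/NaCl/KCl buffer, then incubated for 60 min at 25 °C with streptavidin beads loaded with 100 pmol of biotin-conjugated small molecule. The beads were washed three times, and bound RNA was released in hot SDS and hybridised to a DNA barcode microarray for 20 h at 55.5 °C. Each binding score was derived by subtracting the signal from beads without compound, averaging the barcoded replicate probes after removing the highest and lowest, and expressing the result as a Z-score relative to the library mean and standard deviation.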

[2] = system: TO-N3-2 (biotin conjugate)
Procedure, shortened: as §1

TO-N3 (biotin conjugate) = system: TO-N3 (biotin conjugate)
Procedure, shortened: as §1

[3] = system: TO-3-N3-2 (biotin conjugate)
Procedure, shortened: as §1

Sequence | pull-down binding Z-score [1] | pull-down binding Z-score [2] | pull-down binding Z-score (TO-N3 (biotin conjugate)) | pull-down binding Z-score [3]
UUGCUGUAGUUGUCUCAAGGGCUGUUGUUCUUGUGGAUCCUGCUGCAA | -0.067 | 0.0832 | 0.098 | -0.236
UUGGAGGAAUACAAAUCCAA [DMSMaPseq_invitro_SARS-CoV-2_Motif_375] | -0.233 | -0.014 | -0.481 | -0.252
UUGGAUGACAAAGAUCCAA | -0.56 | -1.13 | -1.01 | -0.741
UUGGUGAGUCCGAUACUUACCUG [U1snRNP5ss-15] | 0.638 | -0.07 | 0.333 | -0.312
UUGUGCUAGUGAGUACACUGGUAAUUACCAGUGUGGUCACUAUAAACAUAUAACUUCUAAAGAAACUUUGUAUUGCAUAG | -0.188 | -0.634 | -0.144 | -0.099
UUGUGGUGAAACUUCAUGGCAG | -0.378 | 0.0697 | -0.269 | -0.3
UUGUUACGAUGGUGGCUGUAUUAAUGCUAACCAAGUCAUCGUCAACAA | -0.368 | 0.952 | -0.0931 | 0.0036
UUGUUGUGAUGAUGAUUAUUUCAAUAA | -1.18 | -0.899 | -1.15 | -0.219
UUUAAACACGCUUGUUAAACAACUUAGCUCCAAUUUUGGUGCAAUUUCAAGUGUUUUAAA [DMSMaPseq_invitro_SARS-CoV-2_Motif_435] | -1.04 | -0.709 | -1.16 | -0.436
UUUAACUUCUAUUAAAUGGGCAGAUAACAACUGUUAUCUUGCCACUGCAUUGUUAACACUCCAACAAAUAGAGUUGAA | 0.27 | -0.68 | 0.142 | 0.0917
UUUACGCAUAUUUGCGUAAA [SHAPE_invitro_SARS-CoV-2_Motif_288] | -0.428 | -1.54 | -0.674 | -0.466
UUUCAAAGAUCAAGUCAUUUUGCUGAAUAAGCAUAUUGACGCAUACAAAACAUUCCCACCAACAGAGCCUAAAAAGGACAAAAAGAAG | -0.934 | -0.0823 | -0.736 | -0.0803
UUUCUUAGAGACGGUUGGGAAAUUGUUAAAUUUAUCUCAACCUGUGCUUGUGAAA [DMSMaPseq_invitro_SARS-CoV-2_Motif_42] | -0.873 | -0.654 | -0.931 | -0.33
UUUGAUAAAUUCAAA | -0.393 | -1.18 | -1.02 | -0.743
UUUUGAUGGUAAAUCAAAA | -0.409 | -1.43 | -0.864 | -0.628
